Results of unrelated studies side by side (data: NIAID ChemDB).

Shared fields: whole-cell or culture tests; organism: Mycobacterium tuberculosis

ECn is the concentration giving n% inhibition of infection, replication or growth. MIC50, MIC90 and the like: level of inhibition, or share of isolates inhibited. Inhibition is in % at the dose shown (toxicity tests: loss of growth or viability). MIC bound: limit read from a one-dose screen. a–b is a range or a potency band. Lines come from different laboratories, so protocols vary. Blank or dashed fields: not listed here.

structure | tested at | setting | strain or isolate | read by | changes | measure | value
CC1(C)Cc2c(oc3ncnc(N)c23)CS1 | 12.5 µg/mL | - | H37Rv | BACTEC | - | inhibition | 5%
CCOC(=O)C[C@H](NCCCCCCCN[C@H](CC(=O)OCC)[C@H]1O[C@@H]2CC(C)(C)C[C@@H]2[C@H]2CC(C)(C)C[C@H]21)[C@H]1O[C@@H]2CC(C)(C)C[C@@H]2[C@H]2CC(C)(C)C[C@H]21 | - | - | H37Rv | - | - | MIC | 25 µg/mL
O=[N+]([O-])c1cn2c(n1)OC[C@@H](OCc1ccc(C#Cc3ccc(F)cc3)cn1)C2 | - | - | - | resazurin | - | MIC90 | 0.05 µM
O=C(Oc1ccc(Br)cc1C(=O)Nc1ccc(C(F)(F)F)cc1)c1ccccc1 | - | 21 d | 331/88 (H37Rv) | broth dilution | - | MIC | 1 µM
CO[C@H]1/C=C/O[C@@]2(C)Oc3c(C)c(O)c4c(O)c(c5c(c4c3C2=O)NC2(C[C@@H](c3ccccc3)N[C@@H](c3ccccc3)C2)N=5)=NC(=O)/C(C)=C\C=C\[C@H](C)[C@H](O)[C@@H](C)[C@H](O)[C@H](C)[C@H](OC(C)=O)[C@@H]1C | - | - | ATCC 35837 (ethambutol-resistant) | - | - | MIC | 0.02 µg/mL
NNC(=O)c1ccncc1 | - | - | H37RV #80 | - | - | MIC | <0.5 µg/mL
CCOC(=O)CC(NCCCCNC(CC(=O)OCC)[C@H]1O[C@@H]2CC(C)(C)C[C@@H]2[C@H]2CC(C)(C)C[C@H]21)[C@H]1O[C@@H]2CC(C)(C)C[C@@H]2[C@H]2CC(C)(C)C[C@H]21 | - | - | H37Rv | - | - | MIC | >25 µg/mL
CC#CC#C/C(=C/C=C/C(=O)OC)SC | - | - | H37Rv | BACTEC | - | MIC bound | >12.5 µg/mL
CC(C)=C[C@@H]1C[C@H](C)[C@H]2CC[C@H](C)c3c2c1c(C)c1ncoc31 | - | - | - | - | - | MIC | 12.5 µg/mL
C/C(=N\OCCc1nnc(-c2ccc(C)cc2)o1)c1ccccc1 | 12.5 µg/mL | - | - | - | - | inhibition | 7–56%
C[C@H]1[C@H](C)Oc2c3c(c4c(c2[C@H]1O)OC(=O)CC4c1ccccc1)OC(C)(C)C=C3 | 12.5 µg/mL | - | H37Rv | BACTEC | - | inhibition | 99%
C=CCN(CC=C)C1=CC(=O)C(=O)c2ccccc21 | 6.25 µg/mL | - | H37Rv | resazurin | - | inhibition | 48%
CC1COc2c(N3CCN(C)CC3)c(F)cc3c(=O)c(C(=O)O)cn1c23 | - | - | 37 strains (drug-resistant) | - | - | MIC50 | 1 µg/mL
CC1(C)N=C(N)N=C(N)N1c1ccc(CCCCc2cccc(S(=O)(=O)F)c2)c(Cl)c1.CCS(=O)(=O)O | 12.5 µg/mL | - | H37Rv | BACTEC | - | inhibition | 4%
O=[N+]([O-])c1cn2c(n1)OC[C@@H](OCc1ccc(N3CCN(c4ccc(C(F)(F)F)cn4)CC3)nc1)C2 | - | - | - | resazurin | - | MIC90 | 0.04 µM
CO[C@H]1/C=C/O[C@@]2(C)Oc3c(C)c(O)c4c(O)c(c(/C=N/N5CCN(C6CCCC6)CC5)c(O)c4c3C2=O)NC(=O)/C(C)=C\C=C\[C@H](C)[C@H](O)[C@@H](C)[C@@H](O)[C@@H](C)[C@H](O)[C@@H]1C | - | - | Erdman | - | - | MIC | 0.12 µg/mL
O=C(Nc1cccc(F)c1)c1cc(Cl)ccc1O | - | 14 d | 331/88 (H37Rv) | broth dilution | - | MIC | 8 µM
O=[N+]([O-])c1cn2c(n1)OC[C@@H](OCc1ccc(N3CCN(c4ccc(C(F)(F)F)cn4)CC3)cc1)C2 | - | - | - | low oxygen | - | MIC90 | 4.9 µM
NCCCOc1c(Br)cc(C/C(=N\O)C(=O)NCCc2cnc(N)[nH]2)cc1Br | - | - | - | - | - | EC50 | 30 µM
C[C@H]1COc2c(N3CCN(C)CC3)c(F)cc3c(=O)c(C(=O)O)cn1c23 | - | - | 37 strains (drug-resistant) | - | - | MIC90 | 1 µg/mL
O=C1c2cc(F)ccc2-n2c1nc1ccncc1c2=O | - | - | H37Rv | - | - | MIC | 0.5 µg/mL
CSC(=S)n1nc(C)c(N=Nc2ccc(F)cc2)c1C | - | - | H37Rv | BACTEC | - | MIC bound | ≤128 µg/mL
CCCCOc1ccc(NC(=S)Nc2ccc(N(C)C)cc2)cc1 | - | - | Ravenel #226 | - | - | MIC | 2 µg/mL
Cn1c(=O)c2nc3c4ccccc4c(=O)n(C)c3nc2n(C)c1=O | 12.5 µg/mL | - | H37Rv | BACTEC | - | inhibition | 0%
CCOC(=O)CC(NCCCCCCCCNC(CC(=O)OCC)[C@H]1O[C@@H]2CC(C)(C)C[C@@H]2[C@H]2CC(C)(C)C[C@H]21)[C@H]1O[C@@H]2CC(C)(C)C[C@@H]2[C@H]2CC(C)(C)C[C@H]21 | - | - | H37Rv | - | - | MIC | 12.5 µg/mL
C[N+](C)(C)CC(=O)N/N=C(\Cc1nc2ccc([N+](=O)[O-])cc2[nH]c1=O)C(=O)Nc1nc2ccc([N+](=O)[O-])cc2s1.[Cl-] | - | - | H37Rv | BACTEC | - | MIC bound | >12.5 µg/mL
C=CCN1[C@@H](c2ccccc2)CC2(C[C@H]1c1ccccc1)N=c1c(c3c4c5c(C)c(O)c3c(O)c1=NC(=O)/C(C)=C\C=C\[C@H](C)[C@H](O)[C@@H](C)[C@H](O)[C@H](C)[C@H](OC(C)=O)[C@H](C)[C@@H](OC)/C=C/O[C@@](C)(O5)C4=O)N2 | - | - | ATCC 35822 (isoniazid-resistant) | - | - | MIC | 0.02 µg/mL
CCCCc1ccc2c(c1)C(=O)c1nc3ccncc3c(=O)n1-2 | - | - | H37Rv | - | - | MIC | 0.015 µg/mL
CO[C@H]1/C=C/O[C@@]2(C)Oc3c(C)c(O)c4c(O)c(c5c(c4c3C2=O)NC2(CCN(CC(C)C)CC2)N=5)=NC(=O)/C(C)=C\C=C\[C@H](C)[C@H](O)[C@@H](C)[C@@H](O)[C@@H](C)[C@H](OC(C)=O)[C@@H]1C | - | - | Strain 11 (RIF-resistant) | - | - | MIC | 1.25 µg/mL
C/C(=N\OCCc1nnc(N)o1)c1ccccc1 | 12.5 µg/mL | - | - | - | - | inhibition | 7–56%
Clc1ccc2ccc3ccc(Cl)nc3c2n1 | 12.5 µg/mL | - | H37Rv | BACTEC | - | inhibition | 6%
C/C(=N\OCc1nnc(-c2ccc(C)cc2)o1)c1ccccc1 | 12.5 µg/mL | - | - | - | - | inhibition | 7–56%
CCN(CC)CCNc1ccc(CO)c2oc3ccc(O)cc3c(=O)c12 | 12.5 µg/mL | - | H37Rv | BACTEC | - | inhibition | 35%
O=C(Oc1cc(Cl)ccc1C(=O)Nc1ccc(C(F)(F)F)cc1)c1ccccc1 | - | 14 d | 331/88 (H37Rv) | broth dilution | - | MIC | 2 µM
c1ccc(C(=NOCCc2nnc(N3CCOCC3)o2)c2ccccc2)cc1 | 12.5 µg/mL | - | - | - | - | inhibition | 7–56%
O=C(Oc1ccc(Cl)cc1C(=O)Nc1ccc(C(F)(F)F)cc1)c1ccccc1 | - | 14 d | Praha 1 | broth dilution | - | MIC | 0.5 µM
COC(=O)c1c(C(=O)OC)c2cc(C(=O)OC(C)C)ccn2c1C(=O)c1ccc(Br)cc1 | - | - | - | resazurin | MDR-MTB | MIC | 8 µg/mL
C/C(=N\OCc1nnc(COc2ccccc2)o1)c1ccccc1 | 12.5 µg/mL | - | - | - | - | inhibition | 7–56%
O=C(Cc1csc2nc(-c3ccccc3)cn12)N/N=C/c1ccc([N+](=O)[O-])o1 | - | - | H37Rv | - | - | MIC | >12.5 µg/mL
O=C(Oc1cc(Cl)ccc1C(=O)Nc1ccc(Br)cc1)c1ccccc1 | - | 14 d | 331/88 (H37Rv) | broth dilution | - | MIC | 2 µM
Cc1nnc2n1N=C(c1ccccc1)C(c1ccccc1)S2 | - | - | H37Rv | BACTEC | - | MIC | 12.5 µg/mL
Nc1nnc(CON=C(c2ccccc2)c2ccccc2)o1 | 12.5 µg/mL | - | - | - | - | inhibition | 7–56%
O=[N+]([O-])c1cn2c(n1)OC[C@@H](OCc1ccc(CNc3ccc(C(F)(F)F)nc3)cc1)C2 | - | - | - | resazurin | - | MIC90 | 0.25 µM
CO[C@H]1/C=C/O[C@@]2(C)Oc3c(C)c(O)c4c(O)c(c(/C=N/N5CCN(C)CC5)c(O)c4c3C2=O)NC(=O)/C(C)=C\C=C\[C@H](C)[C@H](O)[C@@H](C)[C@@H](O)[C@@H](C)[C@H](OC(C)=O)[C@@H]1C | - | - | PR819 | - | - | MIC | 0.04 µg/mL
CC1(C)C[C@H]2[C@@H](C1)[C@@H](C(CCO)NCCCCCCCNC(CCO)[C@H]1O[C@@H]3CC(C)(C)C[C@@H]3[C@H]3CC(C)(C)C[C@H]31)O[C@@H]1CC(C)(C)C[C@H]21 | - | - | H37Rv | - | - | MIC | >25 µg/mL
O=C(Cc1csc2nc(-c3ccccc3)cn12)N/N=C/c1cc(Br)ccc1O | - | - | H37Rv | - | - | MIC | >12.5 µg/mL
COc1ccc([C@@H]2CC3(C[C@H](c4ccc(OC)cc4)N2)N=c2c(c4c5c6c(C)c(O)c4c(O)c2=NC(=O)/C(C)=C\C=C\[C@H](C)[C@H](O)[C@@H](C)[C@H](O)[C@H](C)[C@H](OC(C)=O)[C@H](C)[C@@H](OC)/C=C/O[C@@](C)(O6)C5=O)N3)cc1 | - | - | H37Rv | - | - | MIC | 0.02 µg/mL
O=C(Cc1csc2nc(-c3ccccc3)cn12)N/N=C/C=C/c1ccc([N+](=O)[O-])o1 | - | - | H37Rv | - | - | MIC | >12.5 µg/mL
O=C(Oc1ccc(Cl)cc1C(=O)Nc1ccc(Cl)c(Cl)c1)c1ccccc1 | - | 14 d | 7357/1998 | broth dilution | - | MIC | 0.5 µM
O=[N+]([O-])c1cn2c(n1)OC[C@@H](OCc1ccc(COc3ccc(OC(F)(F)F)cc3)nc1)C2 | - | - | - | resazurin | - | MIC90 | 0.03 µM
CN(C)CCCNc1cc(/C=C/c2cccc3ccccc23)nc2ccccc12 | 6.25 µg/mL | - | H37Rv | - | - | inhibition | 5%
C/C(=N\OCc1nnc(Nc2ccccc2)o1)c1ccccc1 | 12.5 µg/mL | - | - | - | - | inhibition | 7–56%
O=[N+]([O-])c1cn2c(n1)OC[C@@H](OCc1ccc(Oc3ccc(OC(F)(F)F)cc3)cc1)C2 | - | - | - | resazurin | - | MIC90 | 0.03 µM
CCOCOc1ccc2c(c1)C(=O)c1nc3ccncc3c(=O)n1-2 | - | - | H37Rv | - | - | MIC | 0.06 µg/mL
CCN(CC)CC(O)CNc1c(C)cc(C)c2sc3ccccc3c(=O)c12 | 12.5 µg/mL | - | H37Rv | BACTEC | - | inhibition | 99%
CC1(C)C[C@H]2[C@@H](C1)[C@@H](C(CCO)NCCCCCCCCNC(CCO)[C@H]1O[C@@H]3CC(C)(C)C[C@@H]3[C@H]3CC(C)(C)C[C@H]31)O[C@@H]1CC(C)(C)C[C@H]21 | - | - | H37Rv | - | - | MIC | >25 µg/mL
Brc1ccc(Nc2nnc(CCON=C(c3ccccc3)c3ccccc3)o2)cc1 | 12.5 µg/mL | - | - | - | - | inhibition | 7–56%
COc1cccc(/C=N/NC(=O)Cc2csc3nc(-c4ccccc4)cn23)c1 | 12.5 µg/mL | - | H37Rv | - | - | inhibition | 47%
O=C1CC(SC(=S)N2CCOCC2)C(=O)N1 | - | - | PZA-R | - | - | MIC | 3.2 µg/mL
C/C(=N\OCCc1nnc(-c2ccc(N)cc2)o1)c1ccccc1 | 12.5 µg/mL | - | - | - | - | inhibition | 7–56%
CC1(C)CC(=O)/C(=C/C2CCNC2=S)C(=O)N1 | - | - | H37Rv | BACTEC | - | MIC bound | >12.5 µg/mL
O=[N+]([O-])c1cn2c(n1)OC[C@@H](OCc1ccc(Oc3ccc(C(F)(F)F)nc3)cn1)C2 | - | - | - | low oxygen | - | MIC90 | 28 µM
COc1cc2c(c(OC)c1O)-c1ccc(OC)c(=O)cc1[C@@H](NC(=O)C(F)(F)F)CC2 | - | - | H37Rv | BACTEC | - | MIC bound | >12.5 µg/mL
CC(=O)O[C@@H]1OC(=O)C2=CC[C@H]3[C@]4(C)CC[C@H]5C(C)(C)CCC[C@]5(C)[C@H]4CC[C@]3(C)[C@H]21 | - | - | - | - | - | MIC | 4 µg/mL
O=C(Nc1nncs1)c1cnccn1 | 12.5 µg/mL | - | H37Rv | BACTEC | - | inhibition | -4%
C=C[C@](O)(CC[C@@H](C)[C@H]1CC[C@H]2[C@@H]3CC=C4C[C@@H](O)CC[C@]4(C)[C@H]3CC[C@]12C)C(C)C | - | - | - | - | - | MIC | 1 µg/mL
O=S1(=O)c2cc(S(=O)(=O)n3ccnc3)ccc2NC2=NCCCN21 | - | - | H37Rv | BACTEC | - | MIC bound | >12.8 µg/mL
O=C1c2ccccc2-n2c1nc1cccnc1c2=O | - | - | H37Rv | - | - | MIC | 8 µg/mL
CC1=C(C)C(=O)C(C(C)(C)CC(=O)n2cc(F)c(=O)[nH]c2=O)=C(C)C1=O | - | - | H37Rv | BACTEC | - | MIC | 2 µg/mL
O=[N+]([O-])c1cn2c(n1)OC[C@@H](OCc1ccc(Oc3ccc(C(F)(F)F)cc3)nc1)C2 | - | - | - | resazurin | - | MIC90 | 0.04 µM
CCOc1ccc(NC(=O)C(=O)CC(=O)c2sc(NNC(C)=O)nc2C)cc1 | 6.25 µg/mL | - | H37Rv | resazurin | - | inhibition | 9%
CCOc1ccc(NC(=S)Nc2ccc(OCC(C)C)cc2)cc1 | - | - | H37RV #80 | - | - | MIC | 2 µg/mL

Again, the opening 4 rows:

structure,tested at,setting,strain or isolate,read by,changes,measure,value
CC1(C)Cc2c(oc3ncnc(N)c23)CS1,12.5 µg/mL,-,H37Rv,BACTEC,-,inhibition,5%
CCOC(=O)C[C@H](NCCCCCCCN[C@H](CC(=O)OCC)[C@H]1O[C@@H]2CC(C)(C)C[C@@H]2[C@H]2CC(C)(C)C[C@H]21)[C@H]1O[C@@H]2CC(C)(C)C[C@@H]2[C@H]2CC(C)(C)C[C@H]21,-,-,H37Rv,-,-,MIC,25 µg/mL
O=[N+]([O-])c1cn2c(n1)OC[C@@H](OCc1ccc(C#Cc3ccc(F)cc3)cn1)C2,-,-,-,resazurin,-,MIC90,0.05 µM
O=C(Oc1ccc(Br)cc1C(=O)Nc1ccc(C(F)(F)F)cc1)c1ccccc1,-,21 d,331/88 (H37Rv),broth dilution,-,MIC,1 µM